Results of unrelated studies side by side (data: NIAID ChemDB).

All rows: cytotoxicity tests; cells: HepG2; measure: CC50

CCn: concentration that lowers growth or viability of the cells by n%. Neighbouring rows are from separate reports.

SMILES | result
Nc1cn([C@H]2CC[C@@H](CO)O2)c(=O)nc1N | >10 µM
O=C(N/C(C(=O)N1CCCCC1)=C(/Cl)c1ccccc1)c1ccccc1 | >81 µM
Nc1cn([C@H]2C[C@H](O)[C@@H](CO)O2)c(=O)nc1N | >10 µM
CCc1ccc(Nc2nc(NCCCNc3ccnc4cc(Cl)ccc34)nc(N3CCOCC3)n2)cc1 | 11.5 µM
CC(C)OC(=O)[C@H](C)NP(=O)(OC[C@H]1O[C@@H](n2ccc(=O)[nH]c2=O)C(F)(F)C1(F)F)Oc1ccccc1 | >100 µM
CCOC(=O)CCCCCOc1cccc(CN(C(=O)c2ccc(-c3cccc(-c4ccccc4)c3)cc2)C(C)C)c1 | >20 µM
O=C1C(=O)c2ccccc2C(O)=C1C1CCC(c2ccc(Cl)cc2)CC1 | >10 µM
CCCCCCN=C(N)c1ccc(N2CCN(c3ccc(C(N)=NCCCCCC)cc3)CC2)cc1 | >0.409 µg/mL
Nc1nc2c(ncn2[C@@H]2C[C@H](O)[C@H](CO)O2)c(=O)[nH]1 | >200 µM
O=c1[nH]c(=O)n([C@H]2CC[C@@H](CO)O2)cc1[N+](=O)[O-] | >10 µM
CC(C)(C)C(=O)SCCOP(=O)(OCCOCn1cnc2c(=O)[nH]c(N)nc21)OCCSC(=O)C(C)(C)C | 1600 µM
CCCN(Cc1ccc(OCC(=O)OCC)cc1)C(=O)c1ccc(-c2ccc3c(c2)OCO3)cc1 | >20 µM
Nc1ccn([C@H]2CC[C@@H](CO)O2)c(=O)n1 | >25 µM
CC(C)OC(=O)[C@H](C)NP(=O)(OC[C@H]1O[C@@H](n2cnc3c(=O)[nH]c(N)nc32)C(F)(F)C1(F)F)Oc1ccccc1 | >100 µM
CCOC(=O)CCCCCOc1cccc(CN(C(=O)c2ccc(-c3cccc(OCC(C)C)c3)cc2)C(C)C)c1 | >20 µM
COc1ccnc2[nH]cc(C(=O)C(=O)N3CCN(C(=O)c4ccccc4)C[C@H]3C)c12 | >225 µM
Nc1cn([C@@H]2CC[C@@H](CO)O2)c(=O)[nH]c1=O | >10 µM
Nc1ccn([C@@H]2O[C@H](CO)C(F)(F)C2(F)F)c(=O)n1 | >100 µM
O=C(Oc1ccc(Cl)cc1C(=O)Nc1ccc(Cl)c(Cl)c1)c1cnccn1 | 3.16 µM
NNC(=O)c1ccc(N2CCN(c3ccc(C(=O)NN)cc3)CC2)cc1 | 866.8 µM
CCCNc1ccccc1OCCCCC(=O)OCC | >20 µM
c1ccc2[nH]c(-c3ccc(N4CCN(c5ccc(-c6nc7ccccc7[nH]6)cc5)CC4)cc3)nc2c1 | >71 µg/mL
CC(C)OC(=O)[C@H](C)NP(=O)(OC[C@H]1O[C@@H](n2ccc(N)nc2=O)C(F)(F)C1(F)F)Oc1ccccc1 | >100 µM
NC(=Nc1ccccc1)c1ccc(N2CCN(c3ccc(C(N)=Nc4ccccc4)cc3)CC2)cc1 | >11.6 µg/mL
CC(C)OC(=O)[C@H](C)NP(=O)(OC[C@H]1O[C@@H](n2cnc3c(N)ncnc32)C(F)(F)C1(F)F)Oc1ccccc1 | >100 µM
CCCCCCCN=C(N)c1ccc(N2CCN(c3ccc(C(N)=NCCCCCCC)cc3)CC2)cc1 | 2.54 µg/mL
CCOC(=O)CC(=O)NCCc1ccc(OC)c(OC)c1 | >20 µM
CCC(C)CN=C(N)c1ccc(N2CCN(c3ccc(C(N)=NCC(C)CC)cc3)CC2)cc1 | >0.107 µg/mL
O=C(Oc1ccc(Cl)cc1C(=O)Nc1ccc(C(F)(F)F)cc1)c1cnccn1 | 1.66 µM

3 of the rows above, restated:

{"SMILES": "CCc1ccc(Nc2nc(NCCCNc3ccnc4cc(Cl)ccc34)nc(N3CCOCC3)n2)cc1", "result": "11.5 µM"}
{"SMILES": "O=C(N/C(C(=O)N1CCCCC1)=C(/Cl)c1ccccc1)c1ccccc1", "result": ">81 µM"}
{"SMILES": "CCOC(=O)CC(=O)NCCc1ccc(OC)c(OC)c1", "result": ">20 µM"}